# Results as given in PubChem BioAssay AID2560 (University of Pittsburgh Molecular Library Screening Center, 2010).
# The list shows a part of the results, in another mix than the full data. Activity calls are given as the source filed them.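 The calls were made as follows: active = inhibition of at least 50% in both of the two screening runs; inconclusive = at least 50% in one run, below 50% in the other; inactive = inhibition below 50% in both runs.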
# Tested on: hexokinase 1 (Trypanosoma brucei)
# Test: TbHK1 inhibitor retest, confirmation, biochemical, DPI cherry-picked primary actives (AID 2560);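 also: 0% and 100% set by the maximum and minimum signal control wells on each plate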
# Settings: recombinant TbHK1, G6PDH-coupled NADH A340 absorbance; at 10 µM; hits give high values
# In short: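 System: Trypanosoma brucei hexokinase 1 enzyme with G6PDH coupling enzyme; Medium: Mg2+, NAD+ and G6PDH coupling mix; Reagent: substrates glucose 0.5 mM and ATP 0.35 mM; Doses: single compound dose of 10 µM final; Incubation: enzyme reaction 2 h at room temperature; Signal: A340 NADH absorbance, EDTA-quenched; Repeats: duplicate measurements per compound.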
structure (smiles),measurement,value
O=P(Nc1nccs1)(c1ccccc1)c1nc2ccccc2s1 (stereo unspecified),inhibition,active: 88%
